Anti-infective test results gathered from many reports (values: NIAID ChemDB through PubChem).

All rows: whole-cell or culture tests; species: Mycobacterium tuberculosis

MIC50, MIC90 and the like: level of inhibition, or share of isolates inhibited. ECn: concentration that inhibits the pathogen or its effect by n%. Inhibition is in % at the dose shown (toxicity tests: loss of growth or viability). Blank or dashed fields: not listed here. Rows are shuffled and stem from different studies. MIC bound: limit read from a one-dose screen. a–b is a range or a potency band.

smiles,measure,method,strain or isolate,dose,result
c1cc2c[n+](c1)CCCCCCCCCCCCCCc1ccc[n+](c1)CCCCCCCCCCCCC2,MIC,,H37Rv,,8 µg/mL
CCCCc1ccc(NC(=S)Nc2ccc(CCCC)cc2)cc1,MIC,,H37Ra,,0.1–0.5 µg/mL
COc1ccccc1OC(=O)Nc1ccc(C)c([N+](=O)[O-])c1,MIC bound,BACTEC,H37Rv,,>12.5 µg/mL
CC(C)CCOc1ccc(NC(=S)Nc2ccc(OCCC(C)C)cc2)cc1,MIC,,H37Rv,,2.5 µg/mL
COc1cc(C2c3cc4c(c(OC(=O)c5ccccn5)c3CC3COC(=O)C32)OCO4)cc(OC)c1OC,inhibition,BACTEC,H37Rv,12.5 µg/mL,0%
O=C(O)CCC1=NNC(=O)CC1,MIC,,H37Rv,,>1000 µg/mL
COC1C[C@H](C)[C@@H](OC)C2=CC(=O)C=C(NC(=O)/C(C)=C/C=C\[C@H](C)C(OC(N)=O)/C(C)=C/[C@@H](C)[C@@H]1OC)C2=O,MIC,,H37Rv,,12.5 µg/mL
CC1(C)S[C@@H]2[C@H](NC(=O)[C@H](C(=O)[O-])c3ccsc3)C(=O)N2[C@H]1C(=O)[O-].[Na+].[Na+],MIC,,13 strains,,>128 µg/mL
O=C1/C(=C/c2ccccc2)CN(C(=O)/C=C/c2ccc(Cl)cc2)C/C1=C\c1ccccc1,EC50,,H37Rv,,>6.25 µg/mL
NC(N)=NS(=O)(=O)c1ccc(N2C(=O)CC3(CCCC3)C2=O)cc1,MIC bound,BACTEC,H37Rv,,>12.5 µg/mL
CN(C)C(=O)CC(CSc1ccccc1)Nc1c(C(=O)N/N=C/c2ccc(F)cc2)cnc2cccc(C(F)(F)F)c12,MIC,resazurin,H37Rv,,5 µg/mL
NNC(=O)c1nc(C2CCCC2)[nH]c1C1CCCC1,MIC,,H37Rv,,>6.25 µg/mL
O=C(Nc1ncc([N+](=O)[O-])s1)c1cccnc1,MIC,,PAS-R,,12.5 µg/mL
COc1ccc(/C=N/NC(=O)c2cnc3cccc(C(F)(F)F)c3c2NC(CSc2ccccc2)CC(=O)N(C)C)cc1O,MIC,resazurin,H37Rv,,5 µg/mL
CCCCCCCCCCCCCCCCCCNC(=S)NCCCC(=O)OC,MIC,,H37Ra,,>20 µg/mL
Cc1ccc(C(=O)/C=C/c2ccc(C(=O)N3C/C(=C\c4ccccc4)C(=O)/C(=C/c4ccccc4)C3)cc2)cc1,inhibition,,H37Rv,6.25 µg/mL,0%
CCOC(=O)c1ccc(NP(=O)(Nc2ccc(C(=O)OCC)cc2)c2ccc(N)cc2)cc1,MIC bound,BACTEC,H37Rv,,>6.25 µg/mL
COC(=O)CCc1cnc(C2CCCCC2)[nH]1,inhibition,,H37Rv,6.25 µg/mL,2%
N#C/C(=C\c1ccc(Cl)cc1)n1nnc2ccccc21,EC50,,,,<12.5 µg/mL
CC1COc2c(N3CCN(C)CC3)c(F)cc3c(=O)c(C(=O)O)cn1c23,MIC50,,25 strains,,0.78 µg/mL
NCCNc1ccnc2cc(Cl)ccc12.[Cl][Pt][Cl],MIC,resazurin,H37Rv,,15.6 µg/mL
NC(CCCCC(=O)O)C(=O)O,MIC,,H37Rv,,>1000 µg/mL
C#CCN(CC#C)CCNc1ccnc2cc(Cl)ccc12.[Cl][Pt+2][Cl],MIC,resazurin,H37Rv,,>250 µg/mL
CC1=CCC(=O)[C@]2(C)C(CC(=O)O)[C@]3(C)C4=C(C)[C@H](c5ccoc5)C[C@@H]4O[C@@H]3[C@H](O)[C@@H]12,inhibition,BACTEC,H37Rv,12.8 µg/mL,9%
FC(F)(F)C(F)(F)C(F)(F)c1nc2c(Br)cc(Br)cc2[nH]1,MIC,,My 331/88,,16 µM
COc1cc([C@@](O)(CCN(C)C)[C@@H](c2cc(-c3ccncc3)cnc2OC)c2cccc(OC)c2F)cc(OC)n1,MIC90,resazurin,H37Rv,,28.06 µM
c1cc2c[n+](c1)CCCCCCCCCCCCCc1ccc[n+](c1)CCCCCCCCCC2,MIC,,H37Rv,,8 µg/mL
CSc1ccccc1/C=N/NC(=O)c1cnc2cccc(C(F)(F)F)c2c1NC(CSc1ccccc1)CC(=O)N(C)C,MIC,resazurin,H37Rv,,>100 µg/mL
COc1ccc(C(OC[C@H](O)CNCCNC[C@@H](O)COC(c2ccc(OC)c(OC)c2)c2ccc(OC)c(OC)c2)c2ccc(OC)c(OC)c2)cc1OC,MIC,,H37Rv,,12.5 µg/mL
Oc1cc2oc3cc(O)c(O)cc3c2cc1O,inhibition,BACTEC,H37Rv,12.5 µg/mL,27%
COc1cc(C(O)(CCN(C)C)C(c2cc(-c3ccccc3C#N)cnc2OC)c2cccc(OC)c2F)cc(OC)n1,MIC90,resazurin,H37Rv,,16.8 µM
FC(F)(F)c1nc2c(Cl)cc(Cl)cc2[nH]1,MIC,,My 331/88,,32 µM
NNC(=O)c1ccncc1,MIC,,H37Ra,,0.1 µg/mL
CCOC(=O)c1cnc(C23CC4CC(CC(C4)C2)C3)[nH]1,MIC,,H37Rv,,>6.25 µg/mL
NC(=S)N/N=C\c1ccccc1,MIC,,H37Ra,,0.179 µg/mL
CCOC(=O)C1=C(C(=O)c2ccccc2)C(c2ccc(Cl)cc2Cl)C(C(=O)c2ccccc2)=C(C(=O)OCC)N1,MIC bound,BACTEC,H37Rv,,>12.5 µg/mL
CCn1cc(C(=O)O)c(=O)c2cc(F)c(N3CCNCC3)cc21,MIC90,,,,8 µg/mL
N#C/C(=C\c1ccc(F)cc1)n1nc2ccccc2n1,inhibition,,,12.5 µg/mL,0%
CN(C)C(=O)CC(CSc1ccccc1)Nc1c(C(=O)N/N=C/c2ccc(Br)s2)cnc2cccc(C(F)(F)F)c12,MIC,resazurin,H37Rv,,10 µg/mL
C[C@@H]1C[C@]23CCC4[C@]5(C)CCC[C@]4(C)C2CC[C@]1(C3)OC(=O)CCCCCCCC(=O)O[C@H]1CC2[C@@]3(CCC4[C@@](C)(CCC[C@]42C)COCCCOC(=O)CC(=O)OCCCOC5)C[C@@H]1[C@@H](C)C3,MIC99,BACTEC / radiometric,H37Rv,,20 µg/mL
C#CCN(CC#C)CCCNc1ccnc2cc(Cl)ccc12,MIC,resazurin,H37Rv,,15.6 µg/mL
O=C(O)CCCCC(=O)O,MIC,,H37Rv,,>100 µg/mL
NC1CCN(c2c(F)cc3c(=O)c(C(=O)O)cn(C4CC4)c3c2Cl)C1,MIC,,H37Rv,,0.01 µg/mL
Nc1ccc(C(=O)NN=C(CCC(=O)O)CCC(=O)O)c(O)c1,MIC,,H37Rv,,50 µg/mL
CSc1ccccc1/C=N/NC(=O)c1cnc2cc(F)ccc2c1NC(CSc1ccccc1)CC(=O)N(C)C,MIC,resazurin,H37Rv,,>100 µg/mL
CC(/C=N/N=C(N)N)=N\N=C(N)N,MIC bound,BACTEC,H37Rv,,>12.5 µg/mL
c1cc2c[n+](c1)CCCCCCCCCCCCCCc1ccc[n+](c1)CCCCCCCCCCC2,MIC,,H37Rv,,8 µg/mL
COC(=O)C1C(=O)C(C(=O)OC)C2C(C(=O)OC)C(=O)C(C(=O)OC)C12,inhibition,BACTEC,H37Rv,12.5 µg/mL,0%
NCCNc1ccnc2cc(Cl)ccc12,MIC,resazurin,H37Rv,,125 µg/mL
NNC(=O)C1CCCC(=O)N1,MIC,,H37Rv,,>20 µg/mL
O=C1/C(=C\c2ccccc2)CN(C(=O)c2ccc(/C=C/C(=O)c3ccc(Cl)c(Cl)c3)cc2)C/C1=C/c1ccccc1,EC50,,H37Rv,,>6.25 µg/mL
Oc1cc(Br)ccc1/C=N/Nc1ccccn1,inhibition,BACTEC,H37Rv,12.5 µg/mL,33%
CCOC(=O)c1nc(C(C)(C)C)[nH]c1C(C)(C)C,MIC,,H37Rv,,>6.25 µg/mL
CCCOc1ccc(NC(=S)Nc2ccc(OCCC)cc2)cc1,MIC,,H37Ra,,0.1–0.5 µg/mL
COc1ccc(/C=N/NC(=O)c2cnc3cccc(C(F)(F)F)c3c2NC(CSc2ccccc2)CC(=O)N(C)C)cc1,MIC,resazurin,H37Rv,,>100 µg/mL
O=C(CN1CCOCC1)N1c2ccccc2Sc2cc3ccccc3cc21,MIC bound,BACTEC,H37Rv,,>12.5 µg/mL
NNC(=O)CCc1cnc(C2CCCC2)[nH]1,MIC,,H37Rv,,>6.25 µg/mL
O=C1/C(=C/c2ccccc2)CN(C(=O)c2ccccc2)C/C1=C\c1ccccc1,inhibition,,H37Rv,6.25 µg/mL,24%
NNC(=O)C1CCC(=O)N1,MIC,,H37Rv,,>100 µg/mL
COc1ccc2cc1-c1cc(ccc1O)C[C@@H]1NCCc3cc4c(cc31)Oc1c(c(OC)cc3c1[C@H](C2)N(C)CC3)O4,MIC,resazurin,H37Ra,,3.1 µg/mL
CCOc1ccc(-n2c(=O)n3c(Nc4ccc(Cl)cc4)nc4c(c(=O)n(C)c(=O)n4C)n3c2=O)cc1,MIC bound,BACTEC,H37Rv,,>12.5 µg/mL
CCCCc1ccc(NC(=S)Nc2ccc(O)cc2)cc1,MIC,,H37Ra,,0.5 µg/mL
Cc1cccc(C)c1N=Nc1sc(N)nc1-c1ccccc1,MIC bound,BACTEC,H37Rv,,>6.25 µg/mL
CN(C)C(=O)CC(CSc1ccccc1)Nc1c(C(=O)N/N=C/c2ccc(F)cc2)cnc2cc(F)ccc12,MIC,resazurin,H37Rv,,1.25 µg/mL
NC(=S)N/N=C/c1ccc2oc3ccccc3c2c1,MIC,,RMP-R,,0.1 µg/mL
N#C/C(=C\c1ccc(F)cc1)n1nnc2ccccc21,EC50,,,,>12.5 µg/mL
CC(C)(C)c1ncc(C(=O)O)[nH]1,MIC,,H37Rv,,>6.25 µg/mL
COc1cc([C@](O)(CCN(C)C)[C@@H](c2cc(-c3ccc(C#N)cc3)cnc2OC)c2cccc(OC)c2F)cc(OC)n1,MIC90,resazurin,H37Rv,,0.98 µM
O=[N+]([O-])c1ccc(Sc2nc3c(Cl)cc(Cl)cc3[nH]2)c([N+](=O)[O-])c1,MIC,,My 331/88,,32 µM
N#C/C(=C\c1ccc(N)cc1)n1nc2ccccc2n1,inhibition,,,12.5 µg/mL,28%
CCCCc1ccc(NC(=S)Nc2ccc(SCCC)cc2)cc1,MIC,,H37Ra,,0.5 µg/mL
COc1ccc(C2Oc3c(c(O)cc4c3[C@@H](c3ccc(O)cc3O)[C@@H](O)C(c3ccc(O)c(O)c3)O4)C[C@H]2O)cc1O,MIC bound,BACTEC,H37Rv,,>12.5 µg/mL
C#CCNCCNc1ccnc2cc(Cl)ccc12,MIC,resazurin,H37Rv,,15.6 µg/mL
FC(F)(F)c1nc2c(Br)cc(Br)cc2[nH]1,MIC,,My 331/88,,32 µM
O=C(N/C=C(\c1ccccc1)S(=O)Cc1ccccc1)Nc1ccccc1Cl,inhibition,BACTEC,H37Rv,12.5 µg/mL,22%
N#C/C(=C\c1ccc(C(=O)O)cc1)n1nnc2ccccc21,EC50,,,,>12.5 µg/mL
FC(F)(F)c1nc2c(Br)c(Br)c(Br)c(Br)c2[nH]1,MIC,,My 331/88,,32 µM
O=C(/C=C/C(=O)N1C/C(=C\c2ccccc2)C(=O)/C(=C/c2ccccc2)C1)Nc1ccc(Cl)cc1,inhibition,,H37Rv,6.25 µg/mL,0%
FC(F)(F)C(F)(F)c1nc2c(Br)c(Br)c(Br)c(Br)c2[nH]1,MIC,,My 331/88,,16 µM
O=C1/C(=C/c2ccccc2)CN(C(=O)c2ccc(/C=C/C(=O)c3ccc([N+](=O)[O-])cc3)cc2)C/C1=C\c1ccccc1,inhibition,,H37Rv,6.25 µg/mL,6%
CC(=O)O[C@H]1CC2C(C)(C)OC3CC(=O)OCC32C2CC[C@@]3(C)C(=CC[C@@H]3c3ccoc3)[C@]21C,MIC bound,BACTEC,H37Rv,,>12.5 µg/mL
CCOC(=O)CCCC/C=N/NC(N)=S,MIC,,H37Rv,,10 µg/mL
Cc1cc(O)c2c(c1)C(=O)C(c1c(C)cc3c(c1O)C(=O)C1OC1C3=O)=CC2=O,MIC,,KM-R,,0.8 µg/mL
c1cc2c[n+](c1)CCCCCCCCCCCCCCc1ccc[n+](c1)CCCCCCCCCCCCCC2,MIC,,H37Rv,,8 µg/mL

Repeating the final 12 entries:

smiles,measure,method,strain or isolate,dose,result
C#CCNCCNc1ccnc2cc(Cl)ccc12,MIC,resazurin,H37Rv,,15.6 µg/mL
FC(F)(F)c1nc2c(Br)cc(Br)cc2[nH]1,MIC,,My 331/88,,32 µM
O=C(N/C=C(\c1ccccc1)S(=O)Cc1ccccc1)Nc1ccccc1Cl,inhibition,BACTEC,H37Rv,12.5 µg/mL,22%
N#C/C(=C\c1ccc(C(=O)O)cc1)n1nnc2ccccc21,EC50,,,,>12.5 µg/mL
FC(F)(F)c1nc2c(Br)c(Br)c(Br)c(Br)c2[nH]1,MIC,,My 331/88,,32 µM
O=C(/C=C/C(=O)N1C/C(=C\c2ccccc2)C(=O)/C(=C/c2ccccc2)C1)Nc1ccc(Cl)cc1,inhibition,,H37Rv,6.25 µg/mL,0%
FC(F)(F)C(F)(F)c1nc2c(Br)c(Br)c(Br)c(Br)c2[nH]1,MIC,,My 331/88,,16 µM
O=C1/C(=C/c2ccccc2)CN(C(=O)c2ccc(/C=C/C(=O)c3ccc([N+](=O)[O-])cc3)cc2)C/C1=C\c1ccccc1,inhibition,,H37Rv,6.25 µg/mL,6%
CC(=O)O[C@H]1CC2C(C)(C)OC3CC(=O)OCC32C2CC[C@@]3(C)C(=CC[C@@H]3c3ccoc3)[C@]21C,MIC bound,BACTEC,H37Rv,,>12.5 µg/mL
CCOC(=O)CCCC/C=N/NC(N)=S,MIC,,H37Rv,,10 µg/mL
Cc1cc(O)c2c(c1)C(=O)C(c1c(C)cc3c(c1O)C(=O)C1OC1C3=O)=CC2=O,MIC,,KM-R,,0.8 µg/mL
c1cc2c[n+](c1)CCCCCCCCCCCCCCc1ccc[n+](c1)CCCCCCCCCCCCCC2,MIC,,H37Rv,,8 µg/mL